Among the data in the NIST ThermoML archive (doi:10.1016/j.jct.2018.07.024) are activity coefficient values, retold here.

± gives the expanded uncertainty stated by the source.

The nature of the data set: activity coefficient (dimensionless); xn = mol fraction of the nth substance listed. Particulars: 101.33 kPa, Liquid, Chromatography, x1 = 0.

For `C#CCCCCC` [1-heptyne] + CCCCCCCC[N+](CC)(CC)CC.O=S(=O)(F)[N-]S(=O)(=O)F, the activity coefficient came to 2.36 ± 0.16 (318.15 K); 2.49 ± 0.17 (328.15 K); 2.62 ± 0.18 (338.15 K); 2.74 ± 0.19 (348.15 K); 2.88 ± 0.2 (358.15 K); 3 ± 0.2 (368.15 K).

As for `CCCc1ccccc1` [propylbenzene] + CCCC[N+]1(C)CCCC1.O=S(=O)(F)[N-]S(=O)(=O)F, the activity coefficient (318.15 K) was found to be 3.3 ± 0.22; the activity coefficient (328.15 K) is 3.48 ± 0.24; the activity coefficient (338.15 K) is 3.65 ± 0.25; the activity coefficient (348.15 K) was determined as 3.81 ± 0.26; the activity coefficient (358.15 K) was 3.99 ± 0.27; the activity coefficient (368.15 K) was 4.15 ± 0.28.

Regarding `c1ccncc1` [pyridine] + CCCCCCCC[N+](CC)(CC)CC.O=S(=O)(F)[N-]S(=O)(=O)F, the activity coefficient runs as follows: (318.15 K) 0.431 ± 0.035; (328.15 K) 0.457 ± 0.036; (338.15 K) 0.485 ± 0.037; (348.15 K) 0.512 ± 0.038; (358.15 K) 0.539 ± 0.039; (368.15 K) 0.565 ± 0.041.

In the case of `c1ccsc1` [thiophene] + CCCCCCCC[N+](CC)(CC)CC.O=S(=O)(F)[N-]S(=O)(=O)F, the activity coefficient runs as follows: (318.15 K) 0.545 ± 0.04; (328.15 K) 0.583 ± 0.041; (338.15 K) 0.623 ± 0.043; (348.15 K) 0.661 ± 0.045; (358.15 K) 0.701 ± 0.047; (368.15 K) 0.741 ± 0.049.

In the case of `C1CCCCCCC1` [cyclooctane] + CCCCCCCC[N+](CC)(CC)CC.O=S(=O)(F)[N-]S(=O)(=O)F, the activity coefficient (318.15 K) is 7.38 ± 0.5; the activity coefficient (328.15 K) stood at 7.25 ± 0.49; the activity coefficient (338.15 K) was 7.14 ± 0.49; the activity coefficient (348.15 K) came out at 7.03 ± 0.48; the activity coefficient (358.15 K) came to 6.93 ± 0.47; the activity coefficient (368.15 K) came to 6.83 ± 0.47.

Consider `CC(C)c1ccccc1` [isopropylbenzene] + CCCC[N+]1(C)CCCC1.O=S(=O)(F)[N-]S(=O)(=O)F, for which the activity coefficient is 3.24 ± 0.22 (318.15 K); 3.42 ± 0.23 (328.15 K); 3.58 ± 0.24 (338.15 K); 3.75 ± 0.26 (348.15 K); 3.91 ± 0.27 (358.15 K); 4.07 ± 0.28 (368.15 K).

Turning to `CC#N` [acetonitrile] + CCCC[N+]1(C)CCCC1.O=S(=O)(F)[N-]S(=O)(=O)F, the activity coefficient runs as follows: (318.15 K) 0.579 ± 0.041; (328.15 K) 0.601 ± 0.042; (338.15 K) 0.623 ± 0.043; (348.15 K) 0.645 ± 0.044; (358.15 K) 0.667 ± 0.045; (368.15 K) 0.688 ± 0.046.

Consider `CCC(C)O` (stereo unspecified) [butan-2-ol] + CCCCCCCC[N+](CC)(CC)CC.O=S(=O)(F)[N-]S(=O)(=O)F, for which the activity coefficient stood at 2.16 ± 0.15 (318.15 K); 2.05 ± 0.14 (328.15 K); 1.96 ± 0.13 (338.15 K); 1.88 ± 0.13 (348.15 K); 1.81 ± 0.12 (358.15 K); 1.74 ± 0.12 (368.15 K).

On to `C1CCCCC1` [cyclohexane] + CCCCCCCC[N+](CC)(CC)CC.O=S(=O)(F)[N-]S(=O)(=O)F, for which the activity coefficient by setting is: (318.15 K) 5.28 ± 0.36; (328.15 K) 5.23 ± 0.36; (338.15 K) 5.16 ± 0.35; (348.15 K) 5.1 ± 0.35; (358.15 K) 5.07 ± 0.35; (368.15 K) 5.01 ± 0.34.

As to `C=CCCCCCC` [oct-1-ene] + CCCCCCCC[N+](CC)(CC)CC.O=S(=O)(F)[N-]S(=O)(=O)F, the activity coefficient is 8.12 ± 0.55 (318.15 K); 8.2 ± 0.56 (328.15 K); 8.26 ± 0.56 (338.15 K); 8.31 ± 0.57 (348.15 K); 8.33 ± 0.57 (358.15 K); 8.39 ± 0.57 (368.15 K).

Take `Cc1ccccc1` [toluene] + CCCCCCCC[N+](CC)(CC)CC.O=S(=O)(F)[N-]S(=O)(=O)F: the activity coefficient runs as follows: (318.15 K) 0.832 ± 0.054; (328.15 K) 0.89 ± 0.06; (338.15 K) 0.951 ± 0.06; (348.15 K) 1.01 ± 0.06; (358.15 K) 1.07 ± 0.07; (368.15 K) 1.13 ± 0.07.

With `CCc1ccccc1` [ethylbenzene] + CCCC[N+]1(C)CCCC1.O=S(=O)(F)[N-]S(=O)(=O)F, the activity coefficient is, setting by setting: (318.15 K) 2.27 ± 0.15; (328.15 K) 2.41 ± 0.16; (338.15 K) 2.53 ± 0.17; (348.15 K) 2.67 ± 0.18; (358.15 K) 2.8 ± 0.19; (368.15 K) 2.93 ± 0.2.

Turning to `CC(C)CO` [2-methyl-1-propanol] + CCCC[N+]1(C)CCCC1.O=S(=O)(F)[N-]S(=O)(=O)F, the activity coefficient runs as follows: (318.15 K) 3.54 ± 0.24; (328.15 K) 3.3 ± 0.22; (338.15 K) 3.09 ± 0.21; (348.15 K) 2.9 ± 0.2; (358.15 K) 2.74 ± 0.19; (368.15 K) 2.6 ± 0.18.

Regarding `C1CCCCC1` [cyclohexane] + CCCC[N+]1(C)CCCC1.O=S(=O)(F)[N-]S(=O)(=O)F, the activity coefficient (318.15 K) amounted to 13.8 ± 0.9; the activity coefficient (328.15 K) is 13.5 ± 0.9; the activity coefficient (338.15 K) worked out at 13.2 ± 0.9; the activity coefficient (348.15 K) was found to be 13 ± 0.9; the activity coefficient (358.15 K) came to 12.8 ± 0.9; the activity coefficient (368.15 K) came out at 12.5 ± 0.9.

Consider `CCCOCCC` [dipropyl ether] + CCCC[N+]1(C)CCCC1.O=S(=O)(F)[N-]S(=O)(=O)F, for which the activity coefficient reads like this: (318.15 K) 9.23 ± 0.63; (328.15 K) 9.4 ± 0.64; (338.15 K) 9.58 ± 0.65; (348.15 K) 9.73 ± 0.66; (358.15 K) 9.88 ± 0.67; (368.15 K) 10 ± 0.7.

For `CC(C)CC(C)(C)C` [2,2,4-trimethylpentane] + CCCC[N+]1(C)CCCC1.O=S(=O)(F)[N-]S(=O)(=O)F, the activity coefficient turned out to be 42.3 ± 2.9 (318.15 K); 41.1 ± 2.8 (328.15 K); 40 ± 2.7 (338.15 K); 39 ± 2.7 (348.15 K); 38 ± 2.6 (358.15 K); 37.3 ± 2.6 (368.15 K).

`CCCC(C)=O` [pentan-2-one] + CCCC[N+]1(C)CCCC1.O=S(=O)(F)[N-]S(=O)(=O)F: the activity coefficient (318.15 K) came out at 1.03 ± 0.06; the activity coefficient (328.15 K) was 1.1 ± 0.07; the activity coefficient (338.15 K) was 1.17 ± 0.07; the activity coefficient (348.15 K) came out at 1.23 ± 0.08; the activity coefficient (358.15 K) worked out at 1.3 ± 0.08; the activity coefficient (368.15 K) came out at 1.36 ± 0.09.

Take `CCO` [ethanol] + CCCC[N+]1(C)CCCC1.O=S(=O)(F)[N-]S(=O)(=O)F: the activity coefficient was found to be 2.32 ± 0.16 (318.15 K); 2.21 ± 0.15 (328.15 K); 2.1 ± 0.14 (338.15 K); 2 ± 0.14 (348.15 K); 1.91 ± 0.13 (358.15 K); 1.83 ± 0.12 (368.15 K).

With `CCC[N+](=O)[O-]` [1-nitropropane] + CCCCCCCC[N+](CC)(CC)CC.O=S(=O)(F)[N-]S(=O)(=O)F, the activity coefficient was determined as 0.629 ± 0.043 (318.15 K); 0.657 ± 0.045 (328.15 K); 0.681 ± 0.046 (338.15 K); 0.708 ± 0.047 (348.15 K); 0.733 ± 0.049 (358.15 K); 0.758 ± 0.05 (368.15 K).

On to `CCC(C)(C)OC` [2-methoxy-2-methylbutane] + CCCC[N+]1(C)CCCC1.O=S(=O)(F)[N-]S(=O)(=O)F, for which the activity coefficient stood at 4.93 ± 0.34 (318.15 K); 5.18 ± 0.35 (328.15 K); 5.44 ± 0.37 (338.15 K); 5.68 ± 0.39 (348.15 K); 5.94 ± 0.4 (358.15 K); 6.19 ± 0.42 (368.15 K).

Turning to `CCC(=O)OC` [methyl propanoate] + CCCCCCCC[N+](CC)(CC)CC.O=S(=O)(F)[N-]S(=O)(=O)F, the activity coefficient runs as follows: (318.15 K) 0.832 ± 0.054; (328.15 K) 0.881 ± 0.056; (338.15 K) 0.931 ± 0.059; (348.15 K) 0.981 ± 0.062; (358.15 K) 1.03 ± 0.06; (368.15 K) 1.08 ± 0.07.

`CCCC(=O)OC` [methyl butanoate] + CCCCCCCC[N+](CC)(CC)CC.O=S(=O)(F)[N-]S(=O)(=O)F: the activity coefficient is 1.01 ± 0.06 (318.15 K); 1.08 ± 0.07 (328.15 K); 1.14 ± 0.07 (338.15 K); 1.2 ± 0.08 (348.15 K); 1.26 ± 0.08 (358.15 K); 1.32 ± 0.09 (368.15 K).

Turning to `CCC(C)CC` [3-methylpentane] + CCCCCCCC[N+](CC)(CC)CC.O=S(=O)(F)[N-]S(=O)(=O)F, the activity coefficient came out at 8.51 ± 0.58 (318.15 K); 8.45 ± 0.58 (328.15 K); 8.39 ± 0.57 (338.15 K); 8.33 ± 0.57 (348.15 K); 8.3 ± 0.57 (358.15 K); 8.25 ± 0.56 (368.15 K).

Regarding `CC(C)OC(C)C` [diisopropyl ether] + CCCC[N+]1(C)CCCC1.O=S(=O)(F)[N-]S(=O)(=O)F, the activity coefficient reads like this: (318.15 K) 9.39 ± 0.64; (328.15 K) 9.69 ± 0.66; (338.15 K) 9.95 ± 0.68; (348.15 K) 10.2 ± 0.7; (358.15 K) 10.5 ± 0.7; (368.15 K) 10.7 ± 0.7.

Turning to `CCC(=O)OC` [methyl propanoate] + CCCC[N+]1(C)CCCC1.O=S(=O)(F)[N-]S(=O)(=O)F, the activity coefficient by setting is: (318.15 K) 1.2 ± 0.08; (328.15 K) 1.28 ± 0.08; (338.15 K) 1.36 ± 0.09; (348.15 K) 1.44 ± 0.09; (358.15 K) 1.52 ± 0.1; (368.15 K) 1.6 ± 0.11.

On to `C1CCCC1` [cyclopentane] + CCCC[N+]1(C)CCCC1.O=S(=O)(F)[N-]S(=O)(=O)F, for which the activity coefficient (318.15 K) was 9.68 ± 0.66; the activity coefficient (328.15 K) worked out at 9.53 ± 0.65; the activity coefficient (338.15 K) is 9.39 ± 0.64; the activity coefficient (348.15 K) was found to be 9.28 ± 0.63; the activity coefficient (358.15 K) turned out to be 9.17 ± 0.63; the activity coefficient (368.15 K) worked out at 9.05 ± 0.62.
